≈ marks a conversion by molar mass, not a printed value.
Test system: primary cultured rat hepatocytes

Structure (SMILES)	IC50 (concentration showing 50% cell viability)
C/C=C1/NC(=O)CC[C@H](C(=O)O)NC(=O)[C@@H](C)[C@H](/C=C/C(C)=C/[C@H](C)[C@H](Cc2ccccc2)OC)NC(=O)[C@H](CCCNC(=N)N)NC(=O)C[C@H](C(=O)O)NC(=O)[C@H](CCCNC(=N)N)NC(=O)[C@@H](C)NC1=O	4.95 µg/mL (≈ 4.83 µM)
C=C1C(=O)N[C@H](C)C(=O)N[C@@H](CCCNC(=N)N)C(=O)N[C@@H](C(=O)O)CC(=O)N[C@@H](CCCNC(=N)N)C(=O)N[C@@H](/C=C/C(C)=C/[C@H](C)[C@H](Cc2ccccc2)OC)[C@H](C)C(=O)N[C@@H](C(=O)O)CCC(=O)N1C	>10 µg/mL
